Results of single-concentration screens

Measurements from “University of Dundee, Small-Polar-MMV Screening Library” (2021), ChEMBL document CHEMBL3988442.

The filed quantity is “Percent Effect” (%).
The controls that fix the scale are not given in the record; negative values are as filed.
This is part of a subset picked to be rich in strong results.
A dash means the value is not listed here; it may have been measured.

Mtb cholesterol medium: 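Growth of Mycobacterium tuberculosis over 4 days (cholesterol / DPPC medium with tyloxapol); the read-out is not stated. Tested at 500 µM. The record gives no direction; compounds that gave an IC50 in retests scored well above the rest, so higher reads as more growth inhibition. About 18,000 compounds were tested under these conditions; 5% (about 900) showed 50% or more at least once.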
Mtb glucose medium: 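Growth of Mycobacterium tuberculosis over 3 days (7H9 medium with glucose and tyloxapol); the read-out is not stated. Tested at 500 µM. Higher reads as more growth inhibition (inferred: compounds with an IC50 in retests scored well above the rest). Size under these conditions: about 18,000 compounds, about 1,400 of them at 50% or above in at least one test.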

| # | Compound | Mtb cholesterol medium | Mtb glucose medium |
|---|---|---|---|
| 1 | `Cc1nc(CNC(=O)c2ccc3c(c2)N(C)CC3)no1` | 4.521 | - |
| 2 | `NCCNCC(F)(F)F` | - | -6.242 |
| 3 | `c1ccc(N2CCC(N3CCCC3)CC2)nc1` | - | 1.113 |
| 4 | `COc1ccc(C(C)=O)cc1CN1CCCC1` | - | -14.44 |
| 5 | `CN1CCCN(S(=O)(=O)c2ccc(Br)cn2)CC1` | - | 13.28 |
| 6 | `COc1ccc(C(=O)NCCN2CCCC2)cc1` | 9.964 | - |
| 7 | `CS(=O)(=O)N1CCC(CC(=O)NCc2ccccc2)C1` (centres unmarked) | -16.79 | 7.918 |
| 8 | `CN(CCNC(=O)NC1CCOCC1)C1CCCC1` | - | -7.975 |
| 9 | `CCc1nccn1CCNC(=O)CN1CCCC(O)C1` (centres unmarked) | -0.9801 | - |
| 10 | `C[C@@H](CO)NC(=O)c1cc(N(C)C)ccn1` | - | -2.281 |
| 11 | `CCN(Cc1ccc2c(c1)OCCO2)[C@H]1COC[C@@H]1O` | - | 11.03 |
| 12 | `Cc1csc(CCNC(=O)CNC(=O)C(C)(C)C)n1` | - | -3.158 |
| 13 | `Cc1ccc(C(=O)NCc2ccnc(N(C)C)c2)cn1` | 11.6 | - |
| 14 | `COc1ccc2c(c1)OCC(C(=O)N(C)CCC#N)C2` (centres unmarked) | 8.708 | - |
| 15 | `O=S(=O)(c1ccc(CN2CCC[C@H]2CO)cc1)C(F)F` | 12.67 | - |
| 16 | `CN(CCn1cnnc1)c1ccc2ccc(F)cc2n1` | 72.21 | 69.39 |
| 17 | `CCC1CN(C(=O)c2ccc(S(C)(=O)=O)cc2)CCO1` (centres unmarked) | 2.687 | - |
| 18 | `Cc1ccc(C(=O)NCc2ccccc2CO)c(=O)[nH]1` | - | -6.283 |
| 19 | `CN(C)c1nc(Cl)c(CN)s1` | - | -9.309 |
| 20 | `CS(=O)(=O)NCCNC(=O)C1CCN(S(C)(=O)=O)CC1` | -19.22 | - |
| 21 | `COc1ccc(C(N)c2ccco2)cc1` (centres unmarked) | 20.26 | 19.91 |
| 22 | `O=C(CN1CCN(C(=O)c2ccco2)CC1)NC1CC1` | - | 13.24 |
| 23 | `Nc1nnc(CCCN2C(=O)c3ccccc3C2=O)s1` | -3.657 | - |
| 24 | `NCC1CCC2(CCCC2)O1` (centres unmarked) | - | -1.23 |
| 25 | `COCCCNc1ccc(Br)cn1` | 23.52 | 44.47 |
| 26 | `O=C(NCCCN1CCCC1)c1ccccn1` | - | 19.83 |
| 27 | `Cc1ccc(NC(=O)CN(C)C(=O)C(C)C)cc1` | 23.6 | - |
| 28 | `CC(C)Cc1cc(C(=O)NCC(O)C(F)(F)F)[nH]n1` (centres unmarked) | 59.13 | 61.14 |
| 29 | `Cc1ccc(C)c(NC(=O)C(C)N2CCC(O)CC2)c1` (centres unmarked) | -3.928 | 4.327 |
| 30 | `O=C(C1CCCC1)N1CCN(C(=O)C2CCCO2)CC1` (centres unmarked) | 2.994 | - |
| 31 | `CCOc1ccc(CNC(=O)CCn2cccn2)cc1` | - | 57.28 |
| 32 | `Cc1cc(NC(CO)CO)nc2ccccc12` | 8.314 | - |
| 33 | `Cn1c(CNC(=O)C2=CCCCO2)nnc1C1CCC1` | - | 7.129 |
| 34 | `OCC1(O)CCOCC1` | - | 2.099 |
| 35 | `CCc1ccsc1C(=O)NC(C)c1ncon1` (centres unmarked) | - | 23.61 |
| 36 | `O=C(CC1=CCCCC1)N1CCOc2ccncc21` | - | 23.72 |
| 37 | `CCN1CCN(C(=O)Cc2ccc(OC)cc2)CC1` | - | 22.06 |
| 38 | `CCCn1nnnc1NCc1ccsc1` | 70.63 | 66.88 |
| 39 | `O=C(Nc1ccccc1)C1CCCN1` (centres unmarked) | -8.606 | 1.896 |
| 40 | `CCCS(=O)(=O)NC1CCN(Cc2nnc(C)o2)CC1` | - | -6.338 |
| 41 | `CC(=O)N1CCCN(Cc2nc(C3CC3)no2)CC1` | -10.53 | 14.86 |
| 42 | `Cc1ccc(F)cc1S(=O)(=O)N1C[C@H](C2CC2)[C@@H](N)C1` | - | 57.87 |
| 43 | `Cc1ccc(CCC(=O)N(C)C)cc1` | -1.565 | - |
| 44 | `O=C(CC1COCCN1)N1CCC(c2ncc[nH]2)CC1` (centres unmarked) | - | -7.068 |
| 45 | `CCOC(=O)c1c(C)nc2c(C#N)cnn2c1C` | - | -1.36 |
| 46 | `OC(c1cc(F)ccc1F)C1CCNCC1` (centres unmarked) | - | 28.32 |
| 47 | `O=C(NCc1cccc(Cl)c1)c1cnns1` | 70.12 | 81.09 |
| 48 | `CCC(C#N)NC(=O)c1cccc(CN2CCCC2)c1` (centres unmarked) | - | 27.91 |
| 49 | `CCN(Cc1ccoc1)C(=O)[C@@H](N)C(C)C` | -5.092 | - |
| 50 | `O=C(C1CCCN(C2CCNCC2)C1)N1CCCC1` (centres unmarked) | -2.613 | - |
| 51 | `CCCc1cc(C(=O)NCC2COCCO2)cs1` (centres unmarked) | 80.95 | 81.58 |
| 52 | `Cn1ccnc1CN1CCNCC1` | 34.37 | - |
| 53 | `CC(N)c1ccc(OCC(=O)NC2CC2)cc1` (centres unmarked) | - | 10.03 |
| 54 | `Cc1cc(C(=O)N2CCCN(C)CC2)c(C)s1` | 5.693 | - |
| 55 | `CC(=O)c1ccccc1-n1cccn1` | - | 6.92 |
| 56 | `c1ccc(CNc2ccncc2)nc1` | 9.399 | - |
| 57 | `CC(C)Nc1cc(Cl)ccc1OCCS(C)(=O)=O` | 50.42 | 52.48 |
| 58 | `CN(CCO)c1ccc2ccc(F)cc2n1` | 8.122 | 27.38 |

Some entries from above, unchanged:

- CCN1CCN(C(=O)Cc2ccc(OC)cc2)CC1 : Mtb glucose medium: 22.06%
- CCN(Cc1ccc2c(c1)OCCO2)[C@H]1COC[C@@H]1O : Mtb glucose medium: 11.03%
- Cn1ccnc1CN1CCNCC1 : Mtb cholesterol medium: 34.37%
- CC(=O)c1ccccc1-n1cccn1 : Mtb glucose medium: 6.92%
- CN(C)c1nc(Cl)c(CN)s1 : Mtb glucose medium: -9.309%
- Cc1ccc(C(=O)NCc2ccccc2CO)c(=O)[nH]1 : Mtb glucose medium: -6.283%
- Cn1c(CNC(=O)C2=CCCCO2)nnc1C1CCC1 : Mtb glucose medium: 7.129%